Experimental data reported in article PMC7863910, “A novel stress-inducible CmtR-ESX3-Zn^2+ regulatory pathway essential for survival of Mycobacterium bovis under oxidative stress” (The Journal of Biological Chemistry, 2020).
Numbering of substitutions follows the chain as printed. Tags and fusion partners may be left off the protein sequences shown.

Assays:
CmtR-C24S = biological target: T1, CmtR-C24S (UniProt P9WMI9); test: EMSA; conditions: recombinant protein; residues 1-118; protein details: His-tag (pET28a); probe letters rebuilt from the primers and the genome
T1 sequence (looked up): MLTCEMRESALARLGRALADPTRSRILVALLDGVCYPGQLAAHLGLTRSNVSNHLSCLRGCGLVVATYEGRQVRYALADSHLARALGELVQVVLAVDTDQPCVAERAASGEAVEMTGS

CmtR-C4S = biological target: T2, CmtR-C4S (UniProt P9WMI9); test: EMSA; conditions: recombinant protein; residues 1-118; protein details: His-tag (pET28a); probe letters rebuilt from the primers and the genome
T2 sequence (looked up): T1 sequence (looked up) with C4S, S24C

Q: Does “GATTCCCGCATCTCACACGTCAGCATAGATCAAATAGTACACCATATACTGGTATAACAGCAAGAGCTGAATTGTACATCCATAGCAGATATGATCGGCGCGCGTCACAAGCTTCCGGCCGCAGAGCCGCCAACTCACGATATCGTTAACCGATATCCCGAGCCGATAGCTGGCGGGCTCGGGTGGTGGCCAGCGGCGCTGCGACGAAAGGTGTGACCGTCATGAAACAGACACCACCGGCGGCCGTCGGCCGTCGTCACCTGCTCGAGATCTCAGCATCCGCAGCCGGTGTGATCGCGCTTTCGGCGTGTAGTGGGTCGCCGCCCGAGCCCGGCAAAGGCCGGCCCGACACAACCCCGGAACAGGAAGTCCC (double strand) [cmtRp]” bind (CmtR-C24S)?
A: binds

Q: Does “GATTCCCGCATCTCACACGTCAGCATAGATCAAATAGTACACCATATACTGGTATAACAGCAAGAGCTGAATTGTACATCCATAGCAGATATGATCGGCGCGCGTCACAAGCTTCCGGCCGCAGAGCCGCCAACTCACGATATCGTTAACCGATATCCCGAGCCGATAGCTGGCGGGCTCGGGTGGTGGCCAGCGGCGCTGCGACGAAAGGTGTGACCGTCATGAAACAGACACCACCGGCGGCCGTCGGCCGTCGTCACCTGCTCGAGATCTCAGCATCCGCAGCCGGTGTGATCGCGCTTTCGGCGTGTAGTGGGTCGCCGCCCGAGCCCGGCAAAGGCCGGCCCGACACAACCCCGGAACAGGAAGTCCC (double strand) [cmtRp]” bind (CmtR-C4S)?
A: binds
